Target: Neuronal acetylcholine receptor; alpha4/beta2 (Homo sapiens, UniProt P17787+P43681)
Assay: Agonist activity at human alpha4beta2 nAChR by cell-based rubidium flux assay relative to 100 uM nicotine
In short: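 Stably transfected cells expressing rat α3β4 or human α4β2 nAChR were used near confluence. They were preloaded with 86Rb+, washed, stimulated with test agonist, and the medium was separated before lysis. Efflux was taken as medium counts over total counts. […] Results are the mean ± SEM of 3–4 independent experiments.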

Protein sequences, listed by entry. Tags and fused reporters are not part of them. Lines headed by an entry give the natural chain unless they say otherwise; changes in a name come on top.
UniProt P17787: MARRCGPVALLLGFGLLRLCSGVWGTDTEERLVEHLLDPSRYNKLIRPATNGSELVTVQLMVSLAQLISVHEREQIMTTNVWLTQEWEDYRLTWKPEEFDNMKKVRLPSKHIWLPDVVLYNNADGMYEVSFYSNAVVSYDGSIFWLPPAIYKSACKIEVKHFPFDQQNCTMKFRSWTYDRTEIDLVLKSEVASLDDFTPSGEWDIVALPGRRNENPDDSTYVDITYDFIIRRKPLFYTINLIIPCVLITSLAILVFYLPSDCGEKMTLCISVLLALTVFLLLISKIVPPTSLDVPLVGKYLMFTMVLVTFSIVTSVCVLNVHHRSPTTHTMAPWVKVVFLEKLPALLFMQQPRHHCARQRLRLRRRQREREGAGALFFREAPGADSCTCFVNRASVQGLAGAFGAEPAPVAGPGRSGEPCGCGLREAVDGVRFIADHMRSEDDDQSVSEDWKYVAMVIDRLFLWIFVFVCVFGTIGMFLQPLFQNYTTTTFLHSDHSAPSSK
UniProt P43681: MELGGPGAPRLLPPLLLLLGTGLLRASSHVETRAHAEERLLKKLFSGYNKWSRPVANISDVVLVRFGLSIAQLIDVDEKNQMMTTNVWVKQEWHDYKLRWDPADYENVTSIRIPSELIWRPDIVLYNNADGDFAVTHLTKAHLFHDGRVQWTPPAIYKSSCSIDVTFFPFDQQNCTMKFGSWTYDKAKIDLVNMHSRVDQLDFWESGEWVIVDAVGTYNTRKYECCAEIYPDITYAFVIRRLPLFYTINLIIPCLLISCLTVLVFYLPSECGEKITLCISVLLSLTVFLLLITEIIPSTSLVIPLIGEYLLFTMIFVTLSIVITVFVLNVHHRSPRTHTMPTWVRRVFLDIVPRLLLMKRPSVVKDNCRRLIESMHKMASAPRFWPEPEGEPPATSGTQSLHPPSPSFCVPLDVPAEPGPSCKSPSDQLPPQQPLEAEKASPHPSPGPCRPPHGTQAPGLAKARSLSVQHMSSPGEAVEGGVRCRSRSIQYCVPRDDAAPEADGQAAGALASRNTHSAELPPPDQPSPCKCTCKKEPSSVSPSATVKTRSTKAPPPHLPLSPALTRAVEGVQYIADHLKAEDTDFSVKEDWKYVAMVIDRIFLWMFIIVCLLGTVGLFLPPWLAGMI

`CN1CCC[C@H]1c1ccccc1` was tested, and the Emax was 103%.
